Anti-infective test results gathered from many reports (values: NIAID ChemDB through PubChem).

Common to all: cytotoxicity tests; endpoint: CC50

Rows are shuffled and stem from different studies. Blank or dashed fields: not listed here. CCn is the concentration with n% toxicity to the cells.

SMILES	cells	read by	setting	value
O=C(Nc1ccc(Br)cc1)c1cc(Cl)ccc1OC(=O)N(c1ccccc1)c1ccccc1	HepG2 cell	MTT	-	>100 µM
CCNC(=O)NC1N=C(c2ccccc2)c2ccccc2NC1=O	HEP-2	-	-	2 µM
CN(C)C(=S)Oc1ccc(Cl)cc1C(=O)Nc1ccc(Br)cc1	HepG2 cell	MTT	-	85.64 µM
Cc1cc(N)c2ccccc2[n+]1CCCCCCCCCC[n+]1c(C)cc(N)c2ccccc21	Jurkat cells	luminescence	-	0.7 µM
O=C(CCCl)NN1CC[N+]2(CC1)CC[N+]1(CCN(NC(=O)CCCl)CC1)CC2	K562	-	-	>393.5 µg/mL
Nc1nc(N)c2ncn(CCOCP(=O)(O)O)c2n1	Primary duck hepatocytes	-	-	175 µg/mL
COc1ncnc(N2CC[N+]3(CC2)CC[N+]2(CCN(c4ncnc(OC)c4[N+](=O)[O-])CC2)CC3)c1[N+](=O)[O-]	K562	-	-	>304.2 µg/mL
CC(=O)OC1C(COC(=O)/C=C/c2ccc(O)cc2)OC(COC(=O)/C=C/c2ccc(O)cc2)(OC2OC(COC(=O)/C=C/c3ccc(O)cc3)[C@@H](OC(C)=O)[C@H](O)[C@H]2O)C1OC(=O)/C=C/c1ccc(O)cc1	C-33A	MTT	-	36.84 µg/mL
COC(=O)C(C)c1cc([NH+]([O-])O)c(CC(C)C)c([NH+]([O-])O)c1	RAW 264.7	resazurin / fluorescence	-	250 µg/mL
CN1[C@@H]2CC[C@H]1CC(OC(c1ccccc1)c1ccccc1)C2	Huh 7.5.1 clone 2	MTT	-	26.25 µM
O=[N+]([O-])c1ccc(-c2n[nH]c(=S)s2)cc1	Panc-1	MTT	-	>100 µg/mL
O=C1C[C@@H](c2ccc(OC3O[C@H](CO)[C@@H](O)[C@H](O)[C@H]3O)cc2)Oc2cc(O)ccc21	Huh7.5	WST	-	570 µg/mL
Nc1ncnc2c1ncn2[C@H]1CC[C@@H](CO)O1	Primary duck hepatocytes	-	-	>200 µg/mL
Nc1nc(=O)n([C@@H]2O[C@H](CO)[C@@H](O)[C@@H]2F)cc1I	NC-37 CELLS	-	-	10 µM
Fc1ccccc1CCNC(=S)Nc1ccc(Br)cn1	Human vaginal epithelial	-	-	>1000 µM
Fc1ccc(-c2nc(SCC3CC3)n[nH]2)cc1	THP-1	MTT	-	>100 µg/mL
Nc1ccc(C(=O)O)c(O)c1	HepG2 cells	MTT	-	2240 µM
Cc1cn([C@H]2C[C@H](N=[N+]=[N-])[C@@H](CO)O2)c(=O)[nH]c1=O	PBM	XTT	-	>4 µM
CCCCCCCCCCCCCCCCOCC(O)CO	J774A.1 macrophages	resazurin	-	>200 µg/mL
COc1ccc(C(C)(C)C)cc1C(=O)NC1N=C(c2ccccc2)c2ccccc2NC1=O	HEP-2	-	-	6.1 µM
O=C(N[C@@H](Cc1ccccc1)C(=O)CCl)OCc1ccccc1	Jurkat cells	luminescence	-	1.9 µM
CC(C)(C)OC(=O)NC1N=C(c2ccccc2)c2ccccc2NC1=O	HEP-2	-	-	4.3 µM
O=C(c1ccc(OCCN2CCCCC2)cc1)c1c(-c2ccc(O)cc2)sc2cc(O)ccc12	n4mBid	luminescence	-	7 µM
O=C(O)c1c(-c2ccccc2Cl)nc(SCc2nc3ccccc3[nH]2)[nH]c1=O	Huh7	MTT	-	978 µM
c1cc(CN2CCCNCCNCCCNCC2)ccc1CN1CCCNCCNCCCNCC1	MAGI cell	MTT	-	>0.2 µM
ClCN1CC[N+]2(CC1)CC[N+]1(CCN(CCl)CC1)CC2	GMK	-	-	>507.4 µg/mL
O=C(O)c1cc(C(=O)O)cc(-c2c3nc(c(-c4cc(C(=O)O)cc(C(=O)O)c4)c4ccc([nH]4)c(-c4cc(C(=O)O)cc(C(=O)O)c4)c4nc(c(-c5cc(C(=O)O)cc(C(=O)O)c5)c5ccc2[nH]5)C=C4)C=C3)c1	MAGI cell	MTT	-	36 µM
Cc1nc2sccn2c(=O)c1CCN1CCC(=C(c2ccc(F)cc2)c2ccc(F)cc2)CC1	n4mBid	luminescence	-	17 µM
Fc1ccc(-c2nc(SCCCCBr)n[nH]2)cc1	Panc-1	MTT	-	>100 µg/mL
COc1cc(/C=C/C(=O)N2CCC=CC2=O)cc(OC)c1OC	Jurkat cells	luminescence	-	2.6 µM
O=C(NC1N=C(c2ccccc2)c2ccc(Cl)cc2NC1=O)C1CCCCC1	HEP-2	-	-	5 µM
S=C(NCCC1=CCCCC1)Nc1ccc(Cl)cn1	HUMAN SPERM	-	-	57 µM
CCCCOc1ccc(Nc2cn(C3C=CC(O)C3)c(=O)n(C3C=CC(O)C3)c2=O)cc1	Huh7 cells	MTT	-	>50 µg/mL
Cc1nc(Cl)c([N+](=O)[O-])c(N2CC[N+](C)(C)CC2)n1	K562	-	-	>483.6 µg/mL
CC[C@@H](C(=O)[C@@H](C)[C@@H](O)[C@H](C)CCc1ccc(C)c(O)c1C(=O)O)[C@H]1O[C@](CC)([C@H]2CC[C@](O)(CC)[C@H](C)O2)C[C@@H]1C	Jurkat cells	luminescence	-	0.9 µM
Nc1ncn([C@@H]2O[C@H](CO)[C@@H](O)[C@H]2O)c(=O)n1	Primary duck hepatocytes	-	-	75 µg/mL
N#Cc1c(-c2ccc(Cl)cc2)nc(NCc2nc3ccccc3[nH]2)[nH]c1=O	Huh7	MTT	-	986 µM
Nc1ncnc2c1ncn2C[C@@H](CO)OCP(=O)(O)O	PBL	-	-	50 µM
Clc1ccc2c(c1)C(N1CCNCC1)=Nc1ccccc1O2	n4mBid	luminescence	-	17 µM
O=c1[nH]cnc2c1ncn2[C@H]1CC[C@@H](CO)O1	HELA-CD4+	-	-	2.6 µM
CC[C@H](NC(=O)c1c(C)c(-c2ccccc2)nc2ccccc12)c1ccccc1	n4mBid	luminescence	-	>30 µM
Cc1cn([C@H]2C=C[C@@H](CO)O2)c(=O)[nH]c1=O	Primary duck hepatocytes	-	-	75 µg/mL
COc1ccc(OC)c(CCNC(=S)Nc2ccc(Br)cn2)c1	HUMAN SPERM	-	-	>500 µM
CCOC(=O)NC1N=C(c2ccccc2)c2ccccc2NC1=O	HEP-2	-	-	10 µM
O=C(O)c1c(-c2ccccc2O)nc(SCc2nc3ccccc3[nH]2)[nH]c1=O	Huh7	MTT	-	766 µM
NC(=S)c1cn([C@H]2C[C@H](O)[C@@H](CO)O2)c2ncnc(N)c12	MEF	-	-	4 µM
O=C(O)c1c(-c2ccccc2Cl)nc(NCc2nc3ccccc3[nH]2)[nH]c1=O	Huh7	MTT	-	953 µM
NNC(=O)c1ccncc1	RAW 264.7	resazurin / fluorescence	-	3000 µg/mL
N=C(N)c1cn([C@H]2C[C@H](O)[C@@H](CO)O2)c2ncnc(N)c12	MEF	-	-	17 µM
CCCCSc1n[nH]c(-c2ccc(O)cc2)n1	THP-1	MTT	-	>100 µg/mL
CC1C(=O)N(O)c2ncc(Br)cc2C1O	PHH	MTS	3 d	>100 µM
NC(=O)c1cn([C@H]2C[C@H](O)[C@@H](CO)O2)c2ncnc(N)c12	MEF	-	-	7 µM
C[C@@H]1CC[C@H]2[C@@H](C)C(=O)O[C@@H]3OC4(C)CC[C@@H]1[C@]32OO4	Huh 5-2	-	-	>177 µM
C=C[C@@H](C1=CC(=O)C(OC)=C(OC)C1=O)c1ccccc1	Jurkat cells	luminescence	-	2.3 µM
O=[N+]([O-])c1c(Cl)ncnc1NN1CC[N+]2(CC1)CC[N+]1(CCN(Nc3ncnc(Cl)c3[N+](=O)[O-])CC1)CC2	L929	-	-	>311.4 µg/mL
OCCN1CCN(CCCN2c3ccccc3Sc3ccc(C(F)(F)F)cc32)CC1	n4mBid	luminescence	-	17 µM
COc1ccc(CCNC(=S)Nc2ccc(Br)cn2)cc1OC	HUMAN SPERM	-	-	>500 µM
C=CC(C)(C)c1cc(/C=C/C(=O)c2ccc(O)cc2)c(OC)cc1O	Huh7.5	WST	-	20 µg/mL
O=C(O)c1c(-c2ccccc2O)nc(NCc2nc3ccccc3[nH]2)[nH]c1=O	Huh7	MTT	-	673 µM
CCCCOc1ccc(Nc2c[nH]c(=O)[nH]c2=O)cc1	Huh7 cells	MTT	-	>50 µg/mL
Nc1ncnc2c1ncn2C[C@@H](CO)OCP(=O)(O)O	Primary duck hepatocytes	-	-	120 µg/mL
COc1c(CC=C(C)C)c(O)cc2oc(=O)c3c(c12)Cc1cc(O)ccc1-3	Huh7.5	WST	-	35.5 µg/mL
S=C(NCCc1ccccn1)Nc1ccccn1	Human vaginal epithelial	-	-	>1000 µM
O=C([O-])c1cc(C(=O)[O-])cc(-c2c3nc(c(-c4cc(C(=O)[O-])cc(C(=O)[O-])c4)c4ccc([n-]4)c(-c4cc(C(=O)[O-])cc(C(=O)[O-])c4)c4nc(c(-c5cc(C(=O)[O-])cc(C(=O)[O-])c5)c5ccc2[n-]5)C=C4)C=C3)c1	MAGI cell	MTT	-	>100 µM
CCCCSc1n[nH]c(-c2ccccc2C)n1	Panc-1	MTT	-	>100 µg/mL
N/C(=N/O)c1cn([C@@H]2O[C@H](CO)[C@@H](O)[C@@H]2O)c2ncnc(N)c12	MEF	-	-	175 µM
O=c1[nH]c(=O)n(C2C=CC(O)C2)cc1Nc1ccc(Oc2ccccc2)cc1	A549 cells	MTT	-	>50 µg/mL
NC(=O)c1c[se]c([C@@H]2O[C@H](CO)[C@@H](O)[C@H]2O)n1	VERO 76	-	-	320 µg/mL
O=C(O)c1c(-c2ccc(F)cc2)nc(SCc2nc3ccccc3[nH]2)[nH]c1=O	Huh7	MTT	-	545 µM
CN(C)C(=O)Oc1ccc(Cl)cc1C(=O)Nc1ccc(Cl)cc1	HepG2 cell	MTT	-	188.7 µM
FC(F)(F)c1ccc(NC(=S)NCCc2ccccn2)nc1	HUMAN SPERM	-	-	>500 µM
CC(C)OC(=O)[C@H](C)N[P@](=O)(OC[C@H]1O[C@@](C#N)(c2ccc3c(N)ncnn23)[C@](C)(O)[C@@H]1OC(=O)C(C)C)Oc1ccccc1	PC-3	ATP	-	40 µM
O=C(/C=C/c1ccc(O)cc1)c1ccc(O)cc1O	Huh7.5	WST	-	11 µg/mL
N#Cc1c(-c2ccccc2)nc(NCc2nc3ccccc3[nH]2)[nH]c1=O	Huh7	MTT	-	986 µM
Nc1ncnc2c1ncn2CCOCP(=O)(O)O	PBL	-	-	50 µM
CCC[C@H](NC(=O)[C@@H]1[C@H]2CCC[C@H]2CN1C(=O)[C@@H](NC(=O)[C@@H](NC(=O)c1cnccn1)C1CCCCC1)C(C)(C)C)C(=O)C(=O)NC1CC1	Huh7	MTT	-	90 µM
O=C1C=C2C(=CCOC2O)O1	Jurkat cells	luminescence	-	1 µM
CC(C)c1cc2c(cc1O)[C@@]1(C)CC[C@@H](O)C(C)(C)[C@@H]1CC2	HepG2.2.15	sulforhodamine	-	<20 µg/mL
COc1cc2c(c(OC)c1OC)-c1ccc(O)c(=O)cc1[C@@H](NC(C)=O)CC2	Jurkat cells	luminescence	-	>100 µM
CCCCc1ccc(Nc2c[nH]c(=O)[nH]c2=O)cc1	Huh7 cells	MTT	-	>50 µg/mL
COC(C)(C)c1cc2c(c(O)c1O)[C@@]1(C)CCCC(C)(C)C1=C[C@@H]2CC(C)=O	HepG2.2.15	sulforhodamine	-	60 µg/mL
O=P(Oc1ccccc1)(Oc1ccccc1)Oc1ccccc1	Human foreskin fibroblasts	-	-	133 µM
CCCN(CCC)c1c([N+](=O)[O-])cc(C(F)(F)F)cc1[N+](=O)[O-]	Fibroblast	-	-	>100 µM
S=C(NCCN1CCNCC1)Nc1ccc(Br)cn1	HUMAN SPERM	-	-	>500 µM
CCCCCCCCCCCCCCCO[P@]1(=O)OC[C@@H]2COC(=O)C2=C(CCCC)O1	HEK293T	resazurin	-	>50 µM

Repeating the final 10 entries:

{"SMILES": "CCC[C@H](NC(=O)[C@@H]1[C@H]2CCC[C@H]2CN1C(=O)[C@@H](NC(=O)[C@@H](NC(=O)c1cnccn1)C1CCCCC1)C(C)(C)C)C(=O)C(=O)NC1CC1", "cells": "Huh7", "read by": "MTT", "value": "90 µM"}
{"SMILES": "O=C1C=C2C(=CCOC2O)O1", "cells": "Jurkat cells", "read by": "luminescence", "value": "1 µM"}
{"SMILES": "CC(C)c1cc2c(cc1O)[C@@]1(C)CC[C@@H](O)C(C)(C)[C@@H]1CC2", "cells": "HepG2.2.15", "read by": "sulforhodamine", "value": "<20 µg/mL"}
{"SMILES": "COc1cc2c(c(OC)c1OC)-c1ccc(O)c(=O)cc1[C@@H](NC(C)=O)CC2", "cells": "Jurkat cells", "read by": "luminescence", "value": ">100 µM"}
{"SMILES": "CCCCc1ccc(Nc2c[nH]c(=O)[nH]c2=O)cc1", "cells": "Huh7 cells", "read by": "MTT", "value": ">50 µg/mL"}
{"SMILES": "COC(C)(C)c1cc2c(c(O)c1O)[C@@]1(C)CCCC(C)(C)C1=C[C@@H]2CC(C)=O", "cells": "HepG2.2.15", "read by": "sulforhodamine", "value": "60 µg/mL"}
{"SMILES": "O=P(Oc1ccccc1)(Oc1ccccc1)Oc1ccccc1", "cells": "Human foreskin fibroblasts", "value": "133 µM"}
{"SMILES": "CCCN(CCC)c1c([N+](=O)[O-])cc(C(F)(F)F)cc1[N+](=O)[O-]", "cells": "Fibroblast", "value": ">100 µM"}
{"SMILES": "S=C(NCCN1CCNCC1)Nc1ccc(Br)cn1", "cells": "HUMAN SPERM", "value": ">500 µM"}
{"SMILES": "CCCCCCCCCCCCCCCO[P@]1(=O)OC[C@@H]2COC(=O)C2=C(CCCC)O1", "cells": "HEK293T", "read by": "resazurin", "value": ">50 µM"}